Test results: publication PMC7864571
For at least one entry, the source does not settle the construct or the ends of the probe. At least one verdict was read from the data and is not stated in words by the source. Where a protein sequence is shown, tags need not be part of it.

Target: T1, NXF1(RRM-LRR) (UniProt Q9UBU9)
T1 sequence (looked up): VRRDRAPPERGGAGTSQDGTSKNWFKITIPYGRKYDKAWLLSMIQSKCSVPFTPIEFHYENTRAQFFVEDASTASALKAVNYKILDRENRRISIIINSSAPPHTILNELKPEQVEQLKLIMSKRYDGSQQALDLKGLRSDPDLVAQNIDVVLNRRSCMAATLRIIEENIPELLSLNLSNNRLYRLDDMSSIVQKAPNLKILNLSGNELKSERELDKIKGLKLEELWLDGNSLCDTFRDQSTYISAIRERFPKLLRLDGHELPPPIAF
Test: EMSA
Conditions: NXF1 (RRM-LRR) alone, 100 nM RNA, 10 mM Tris pH 8.0, 100 mM NaCl, 0.5 mM TCEP, 8% glycerol, 0.5 U/ul SUPERase-In, room temperature 10 min, 5% native PAGE, recombinant protein, residues 96-362, protein details: GST tag removed by TEV, label: 5' Alexa Fluor 488

Sequence: UUUUUUUUUUUUUUU [poly(U) 15-mer RNA]
- binding result: binds
